To fix the notation:
B1: hybrid ADD (VHH)
VHH: EVQLQASGGGLVQPGGSLRLACQYSGRTFSRAVMGWFRQSPGKEREFVAAIRWTDSRTPHTDSRFTTSSDNFKKTAYLQMNGLKPEDTALYYCTEDTWNSVVTGTAADWSQGTQVTVSS
B2: hybrid AAD (VHH)
VHH: EVQLVESGGGLVQAGDSLRLSCTASGRTFSRAVMGWFRQAPGKEREFVAAISAAPGTAYYAFYADSVRGRFSISADSAKNTVYLQMNSLKPEDTAVYYCAADTWNSVVTGTAADWGQGTQVTVSS
B3: hybrid antibody A3C8 (VHH)
VHH: EVQLVESGGGLVQAGDSLRLSCTASGRTLGDYGVAWFRQAPGKEREFVSVISRSTIITDYADSVRGRFSISADSAKNTVYLQMNSLKPEDTAVYYCAVIANPVYATSRNSDDYGHWGQGTQVTVSS
B4: hybrid construct A3D1 (VHH)
VHH: EVQLVESGGGLVQAGDSLRLSCTASGREGTTTVGWFRQAPGKEREFVAAIRWTDSRTPHTDSRFSISADSAKNTVYLQMNSLKPEDTAVYYCAADTWNSVVTGTAADWGQGTQVTVSS
B5: hybrid construct D1A3 (VHH)
VHH: EVQLQASGGGLVQPGGSLRLACQYSGRTFSRAVMGWFRQSPGKEREFVAAISAAPGTAYYAFYADSVRGRFTTSSDNFKKTAYLQMNGLKPEDTALYYCTEDLKMQVAAYMNQRSVDYWSQGTQVTVSS
B6: hybrid DAD (VHH)
VHH: EVQLQASGGGLVQPGGSLRLACQYSGREGTTTVGWFRQSPGKEREFVAAISAAPGTAYYAFYADSVRGRFTTSSDNFKKTAYLQMNGLKPEDTALYYCTEDTWNSVVTGTAADWSQGTQVTVSS
B7: hybrid antibody C8A3 (VHH)
VHH: EVQLQASGGGLVQGGDSLRLSCAASGRTFSRAVMGWFRQAPGKEREFVSAISAAPGTAYYAFYADSVRGRFTISRDNAKNAVYLQMNSLKPEDTAVYYCAVDLKMQVAAYMNQRSVDYWGQGTQVTVSS
B8: hybrid DDA (VHH)
VHH: EVQLQASGGGLVQPGGSLRLACQYSGREGTTTVGWFRQSPGKEREFVAAIRWTDSRTPHTDSRFTTSSDNFKKTAYLQMNGLKPEDTALYYCTEDLKMQVAAYMNQRSVDYWSQGTQVTVSS

From PMC3797041 (PLoS ONE, 2013) come the findings set out here.

The experiment deals with ricin. Kind of experiment: SPR. (In general: Surface plasmon resonance follows binding to a sensor surface in real time, without labels.)
On to B1, for which the binding result is listed as “no binding”.
Same read-out and setting: the value for B2 was “no binding”.
As usually defined, the Kd is the constant that tells how readily two partners part at equilibrium. For the molecule B3, the dissociation constant (Kd) came out at 0.72 nM.
Molecule B4 came in with a Kd of 9.4 nM.
As to B5, the binding result is listed as “no binding”.
On the same count and under the same terms, the result for B6 reads “no binding”; that for B7, “no binding”.
Still for that read-out and setting: the value for B8 was “no binding”.
